{"source": "patent US10369166B2", "about": "(priority 2014, dated 2019)", "test_system": "Ebola virus", "key": {"[1]": {"conditions": "Example 2: baby (5 kg), initial load 10^7 pfu/ml, sequential"}, "[2]": {"conditions": "Example 5: initial load 10^10 pfu/ml, sequential"}, "[3]": {"conditions": "Example 6: initial load 10^10 pfu/ml, sequential"}, "[4]": {"conditions": "Example 8: baby (5 kg), initial load 10^7 PFU/ml, sequential reduction after each product of the cocktail"}}, "note": "Read-outs that look alike come from different tables or passages of the source.", "data": [{"smiles": "C[C@H]1[C@H](C)CC[C@]2(C(=O)O)CC[C@]3(C)C(=CC[C@@H]4[C@@]5(C)CC[C@H](O)C(C)(C)[C@@H]5CC[C@]43C)[C@H]12", "values": [{"measurement": "Residual estimated viral load", "setting": "[1]", "value": 12500, "unit": "pfu/ml"}, {"measurement": "Residual estimated viral load", "setting": "[2]", "value": "2.5 × 10^8 pfu/ml"}, {"measurement": "Residual estimated viral load", "setting": "[3]", "value": "1.25 × 10^8 pfu/ml"}, {"measurement": "Residual estimated viral load", "setting": "[4]", "value": 125000, "unit": "pfu/ml"}]}, {"smiles": "CC1(C)CC[C@]2(C(=O)O)CC[C@]3(C)C(=CC[C@@H]4[C@@]5(C)CC[C@H](O)C(C)(C)[C@@H]5CC[C@]43C)[C@@H]2C1", "note": "[BETA-OLEANOLIC ACID]", "values": [{"measurement": "Residual estimated viral load", "setting": "[1]", "value": 1875, "unit": "pfu/ml"}, {"measurement": "Residual estimated viral load", "setting": "Example 3: initial load 10^9 pfu/ml, sequential", "value": 6250, "unit": "pfu/ml"}, {"measurement": "Residual estimated viral load", "setting": "[2]", "value": "1.25 × 10^8 pfu/ml"}, {"measurement": "Residual estimated viral load", "setting": "[3]", "value": "6.25 × 10^7 pfu/ml"}, {"measurement": "Residual estimated viral load", "setting": "[4]", "value": 18750, "unit": "pfu/ml"}, {"measurement": "Residual estimated viral load", "setting": "Example 9: baby (7 kg), initial load 10^8 PFU/ml, sequential reduction after each product", "value": "1.5 × 10^5 pfu/ml"}]}]}
